A mixed list of measured activities; the numbers were collected in NIAID ChemDB.

Common to all: tests in culture; species: HIV-1; cells: C8166; measure: EC50

Blank or dashed fields: not listed here. Neighbouring rows are from separate reports. Two numbers with a dash give a range or band. ECn is the concentration giving n% inhibition of infection, replication or growth.

structure	strain	mutations	read by	value
Cc1cn([C@H]2C[C@H](N=[N+]=[N-])[C@@H](CO)O2)c(=O)[nH]c1=O	IIIB	-	syncytia / visual reading	0.00251 µM
O=C(/C=C/c1ccc(O)c(O)c1)OC1C[C@@](O)(C(=O)O)C[C@H](O)[C@@H]1O	IIIB	-	syncytia	85.11 µg/mL
CC[C@@]1(O)C(=O)OCc2c1cc1n(c2=O)Cc2cc3cc(O)ccc3nc2-1	IIIB	-	syncytia	0.0334 µg/mL
CC(=O)c1cc(O)c(O)c(O[C@@H]2O[C@H](CO)[C@@H](O)[C@H](O)[C@H]2O)c1	IIIB	-	syncytia	46.25 µg/mL
COC1=C(OC)C(=O)C23COc4c5c(cc(c42)[C@@H](OC(C)=O)[C@@H](C)[C@@H](C)CC3=C1)OCO5	-	-	MTT	7.5 µg/mL
Cc1ccc(OC2=C(C=O)CC[C@@H]3[C@H]4CCCN5CCC[C@@H](CN23)[C@@H]45)cc1	IIIB	-	syncytia	5.4 µg/mL
CCN1c2ncc(CCOc3ccc(C(=O)O)c4c3CCCC4)cc2C(=O)N(C)c2cccnc21	-	RT-V106A	p24	0.1–1 µM
CC(C)=CCN1Cc2cc(Cl)cc3[nH]c(=S)n(c23)C[C@@H]1C	IIIB	-	RT activity	0.002 µM
Cc1cn([C@H]2C[C@H](N=[N+]=[N-])[C@@H](COP(=O)(Oc3ccccc3)Oc3ccccc3)O2)c(=O)[nH]c1=O	IIIB	-	MTT / p24	0.3 µM
CC(C)(C)NC(=O)[C@@H]1CN(Cc2cccnc2)CCN1C[C@@H](O)C[C@@H](Cc1ccccc1)C(=O)N[C@H]1c2ccccc2C[C@H]1O	LAI	-	p24 / ELISA / antigen	0.00392 µg/mL
O=CC1=C(Oc2ccc(Cl)cc2)N2C[C@@H]3CCCN4CCC[C@@H]([C@H]34)[C@H]2CC1	IIIB	-	syncytia	42.08 µg/mL
CCOP(=O)(N[C@@H](C)C(=O)OC)OC[C@H]1O[C@@H](n2cc(C)c(=O)[nH]c2=O)C[C@@H]1N=[N+]=[N-]	IIIB	-	p24	4 µM
Oc1cc(O)c2c(c1)O[C@H](c1ccc(O)c(O)c1)[C@H](O)C2	-	-	MTT	45 µg/mL
Cc1cn([C@H]2C[C@H](N=[N+]=[N-])[C@@H](COP(=O)(OCC(Cl)(Cl)Cl)Oc3ccccc3)O2)c(=O)[nH]c1=O	IIIB	-	MTT / p24	0.2 µM
Cc1cn([C@H]2C[C@H](N=[N+]=[N-])[C@@H](CO)O2)c(=O)[nH]c1=O	Clinical isolate	74V	MTT	0.00485 µM
COc1cc2c(c(OC)c1OC)-c1c(cc3c(c1OC)OCO3)[C@H](OC(C)=O)[C@H](C)[C@H](C)C2	-	-	MTT	17.4 µg/mL
CSc1ccc(OP(=O)(OC[C@H]2O[C@@H](n3cc(C)c(=O)[nH]c3=O)C[C@@H]2N=[N+]=[N-])Oc2ccc(SC)cc2)cc1	IIIB	-	ELISA	0.4 µM
C[C@H](CO)[C@H]1CC[C@@]2(C)C3C=C[C@@]45OC(=O)[C@]3(CC[C@]12C)C4CCC(=O)C5(C)C	IIIB	-	-	17.5 µg/mL
S=C(Nc1ccc(Cl)cc1)Nn1c(-c2ccc(Br)cc2)c[nH]c1=S	IIIB	-	syncytia / visual reading	2.57 µM
COC(=O)[C@H](C)NP(=O)(OC[C@H]1O[C@@H](n2cc(C)c(=O)[nH]c2=O)C[C@@H]1N=[N+]=[N-])OC(Cl)(Cl)Cl	IIIB	-	p24	0.4 µM
O=C(CC1(O)C(=O)Nc2ccccc21)c1cccc(Br)c1	IIIB	-	cytopathic effect / syncytia	227 µM
Cc1cccc(OC2=C(C=O)CC[C@@H]3[C@H]4CCCN5CCC[C@@H](CN23)[C@@H]45)c1	IIIB	-	syncytia	2.75 µg/mL
Oc1cc(O)c2c(c1)O[C@H](c1ccc(O)c(O)c1)[C@@H](O)C2	IIIB	-	syncytia	14.4 µg/mL
Cc1cn([C@H]2C[C@H](N=[N+]=[N-])[C@@H](COP(=O)(Oc3ccc([N+](=O)[O-])cc3)Oc3ccc([N+](=O)[O-])cc3)O2)c(=O)[nH]c1=O	IIIB	-	ELISA	0.0032 µM
CC(C)=CC(=O)C[C@@H](C)[C@H]1CC[C@@]2(C)C3C(=O)[C@@H]4O[C@]45C(CCC(=O)C5(C)C)[C@]3(C=O)CC[C@]12C	IIIB	-	-	40.5 µg/mL
COC(=O)[C@H](C)NP(=O)(OC[C@H]1O[C@@H](n2cc(C)c(=O)[nH]c2=O)C[C@@H]1N=[N+]=[N-])OCC(Cl)(Cl)Cl	IIIB	-	MTT / p24	0.4 µM
COC(=O)C(N)(O)Cc1c[nH]c2ccccc12	IIIB	-	syncytia	83.32 µg/mL
O=C1c2c(O)cc(O)cc2O[C@H](c2ccc(O)c(O)c2)[C@H]1O	-	-	MTT	13.8 µg/mL
Cc1ccc(-c2c[nH]c(=S)n2NC(=S)Nc2ccccc2C)cc1	IIIB	-	syncytia / visual reading	13.7 µM
C[C@H](C/C=C/C(C)(C)O)[C@H]1CC[C@@]2(C)C3C=C[C@@]45O[C@H](O)[C@]3(CC[C@]12C)C4CC[C@H](O)C5(C)C	IIIB	-	-	11.1 µg/mL
Cc1ccccc1OC1=C(C=O)CC[C@@H]2[C@H]3CCCN4CCC[C@@H](CN12)[C@@H]34	IIIB	-	syncytia	19.78 µg/mL
CCN1c2ncc(CCOc3ccc(CC(=O)O)c4ccccc34)cc2C(=O)N(C)c2ccc(F)nc21	WT	-	p24	<0.1 µM
COc1ccc(OC2=C(C=O)CC[C@@H]3[C@H]4CCCN5CCC[C@@H](CN23)[C@@H]45)cc1	IIIB	-	syncytia	21.85 µg/mL
Cc1cn([C@H]2C[C@H](N=[N+]=[N-])[C@@H](COP(=O)(Oc3ccc(I)cc3)Oc3ccc(I)cc3)O2)c(=O)[nH]c1=O	IIIB	-	ELISA	0.16 µM
CCOn1c(C)nc2c(C)cccc21	IIIB	-	RT activity	8 µM
COC(=O)[C@H](C)NP(=O)(OC[C@H]1O[C@@H](n2cc(C)c(=O)[nH]c2=O)C[C@@H]1N=[N+]=[N-])Oc1ccccc1	IIIB	-	p24	0.08 µM
Cc1ccnc2c1NC(=O)c1cccnc1N2C1CC1	-	K103N	p24 / ELISA	5.38 µM
C/C=C(/C)C(=O)O[C@H]1c2cc3c(c4c2C2(CO4)C(=O)C(OC)=C(OC)C=C2C[C@@H](C)[C@H]1C)OCO3	-	-	MTT	17.8 µg/mL
C[C@H](CC(=O)CC(C)(C)O)[C@H]1CC[C@@]2(C)C3C(=O)[C@@H]4O[C@]45C(CCC(=O)C5(C)C)[C@]3(C=O)CC[C@]12C	IIIB	-	-	13.7 µg/mL
O=CC1=C(Oc2ccccc2)N2C[C@@H]3CCCN4CCC[C@@H]([C@H]34)[C@H]2CC1	IIIB	-	syncytia	61.17 µg/mL
O=C(CC1(O)C(=O)Nc2ccc(Br)cc21)c1ccccc1	IIIB	-	cytopathic effect / syncytia	9.82 µM
Cc1ccccc1NC(=S)Nn1c(-c2ccc(-c3ccccc3)cc2)c[nH]c1=S	IIIB	-	syncytia / visual reading	8.45 µM
C[C@H](C(=O)O)[C@H]1CC[C@@]2(C)C3C(=O)[C@H]4O[C@]45C(CCC(=O)C5(C)C)[C@]3(C=O)CC[C@]12C	IIIB	-	-	59.1 µg/mL
Cc1cn([C@H]2C[C@H](N=[N+]=[N-])[C@@H](COP(=O)(Oc3ccc([N+](=O)[O-])cc3)Oc3ccc([N+](=O)[O-])cc3)O2)c(=O)[nH]c1=O	IIIB	-	MTT / p24	0.0032 µM
CCCOn1c(CC)nc2c(C)cccc21	IIIB	-	RT activity	6 µM
S=C(Nc1ccc(Cl)cc1)Nn1c(-c2ccc(Cl)cc2)c[nH]c1=S	IIIB	-	syncytia / visual reading	8.92 µM
COc1ccc(OP(=O)(OC[C@H]2O[C@@H](n3cc(C)c(=O)[nH]c3=O)C[C@@H]2N=[N+]=[N-])Oc2ccc(OC)cc2)cc1	IIIB	-	ELISA	1.6 µM
O=Cc1ccc(O/C=C2/CC[C@@H]3[C@H]4CCCN5CCC[C@@H](CN3C2=O)[C@@H]45)cc1	IIIB	-	syncytia	48.26 µg/mL
CCSc1nc(=O)n([C@H]2C=C[C@@H](CO)O2)cc1C	-	-	-	>50 µM
O=C(CC1(O)C(=O)Nc2ccc(Cl)cc21)c1ccccc1Cl	IIIB	-	cytopathic effect / syncytia	1.76 µM
Cc1cc(S(N)(=O)=O)ccc1NC(=O)COc1ccc(Cl)cc1C(O)c1cccc(C)c1C	-	-	-	227.5 µM
Cc1ccccc1NC(=S)Nn1c(-c2ccc(Cl)cc2)c[nH]c1=S	IIIB	-	syncytia / visual reading	3.37 µM

For reference, 4 entries again:

structure | strain | mutations | read by | value
Oc1cc(O)c2c(c1)O[C@H](c1ccc(O)c(O)c1)[C@H](O)C2 | - | - | MTT | 45 µg/mL
C/C=C(/C)C(=O)O[C@H]1c2cc3c(c4c2C2(CO4)C(=O)C(OC)=C(OC)C=C2C[C@@H](C)[C@H]1C)OCO3 | - | - | MTT | 17.8 µg/mL
Cc1ccnc2c1NC(=O)c1cccnc1N2C1CC1 | - | K103N | p24 / ELISA | 5.38 µM
Cc1cn([C@H]2C[C@H](N=[N+]=[N-])[C@@H](COP(=O)(Oc3ccc([N+](=O)[O-])cc3)Oc3ccc([N+](=O)[O-])cc3)O2)c(=O)[nH]c1=O | IIIB | - | MTT / p24 | 0.0032 µM